Anti-infective test results gathered from many reports (values: NIAID ChemDB through PubChem).

Common to all: host cell toxicity; cells: VERO; endpoint: CC50

Rows are shuffled and stem from different studies. An empty or dashed field is not shown. CCn is the concentration with n% toxicity to the cells.

structure	read by	result
CC#Cc1cn([C@@H]2O[C@H](COP(=O)(O)Oc3ccc(F)cc3)[C@@H](O)[C@@H]2O)c(=O)[nH]c1=O	-	>500 µM
O=C(Nc1ccncc1)c1ccc([N+](=O)[O-])o1	-	6.86 µg/mL
Cc1ccccc1Sc1cc2ccccc2[n+](CCCCCc2ccccc2)c1	neutral red	>10 µg/mL
FC(F)(F)c1ccccc1Cn1ccc2nc(-c3ccccc3)nc-2c1	-	>100 µg/mL
O=C(O)c1cn2c(n1)CN(c1cc3c(=O)c(C(=O)O)c4n(c3cc1[N+](=O)[O-])CS4)CC2	MTT	141 µM
O=C(NCc1ccc(Cl)cc1)c1c[nH]c2ccc(CCCO)cc2c1=O	-	>100 µM
C/C(=C\CC/C(C)=C/Cc1cc(O)cc(C)c1O)CC/C=C(\C)CC[C@@H](C)C(C)(C)O	-	8.9 µM
O=C(CSC1=N/C(=C/c2ccccc2)C(=O)N1c1ccccc1)Nc1cccc(C(F)(F)F)c1	neutral red	>50 µM
CC1(C)[C@@H](CO)CC[C@@]1(C)Cn1ccc(=O)[nH]c1=O	-	>400 µg/mL
COC1=C2C[C@@H](C)C[C@@H](OC)[C@@H](O)[C@H](C)/C=C(\C)[C@@H](OC(N)=O)[C@H](OC)/C=C\C=C(/C)C(=O)NC(=CC1=O)C2=O	-	350 µM
COc1cc(NS(C)(=O)=O)ccc1Nc1c2ccccc2nc2ccccc12	-	3 µM
Cc1cc(CCCCCOc2c(Cl)cc(C3=NCCO3)cc2Cl)on1	-	15 µg/mL
COc1ccc(/C=N/Nc2cc(C)nc3cc(Cl)ccc23)c2ccccc12	-	3.4 µg/mL
C=CCn1c(=N)n(CC(=O)c2cc(C(C)(C)C)c(O)c(C(C)(C)C)c2)c2ccccc21	neutral red	>50 µM
CC1(C)[C@@H](CO)CC[C@@]1(C)Cn1cnc2c(=O)[nH]cnc21	-	>400 µg/mL
C=C(C[C@@H]1C(=C)CC[C@@H]2[C@@]3(C)CCC[C@@]12C(=O)OC3)c1ccoc1	-	>50 µg/mL
CO[C@H](CO)[C@@H](O)CCn1ccc(N)nc1=O	-	>400 µg/mL
CC#Cc1cn([C@@H]2O[C@H](COP(=O)(Oc3ccccc3)Oc3ccc([N+](=O)[O-])cc3)[C@@H](O)[C@@H]2O)c(=O)[nH]c1=O	-	110 µM
COc1ccc2c(N/N=C/c3ccc4c(c3)OCO4)cc(C)nc2c1	-	5.4 µg/mL
COC(=O)[C@@H](Cc1ccccc1)N1COc2ccc3c(=O)c(-c4ccc5c(c4)OCCO5)c(C)oc3c2C1	neutral red	>50 µM
CCCCC(O)c1c(-c2ccccc2)c(-c2ccccc2)n2ccc(C#N)cc12	-	7.56 µg/mL
C=CCc1ccc(O)c(OC)c1	-	250 µg/mL
O=C(O)c1c2n(c3cc([N+](=O)[O-])c(N4CCN(C(=O)c5ccco5)CC4)cc3c1=O)CS2	MTT	137 µM
FC(F)(F)c1ccccc1Sc1cc2ccccc2[n+](CCCCCC2CCCCC2)c1	neutral red	>10 µg/mL
C[C@H]([C@@H]1CC[C@H](C)[C@@H](O)O1)[C@H]1CC[C@@]2(C)C3=C(CC[C@]12C)[C@@]1(C)CC[C@H](O)C(C)(C)C1CC3	-	>100 µg/mL
COc1cccc([C@H](c2cc3cc(Br)ccc3nc2OC)[C@@](O)(CCN(C)C)c2ccncc2C)c1F	-	>10 µg/mL
COc1nc(N)c2ncn([C@H]3C[C@H](N=[N+]=[N-])[C@@H](CO)O3)c2n1	MTS	>100 µM
CN/N=C/c1cc(C(F)(F)F)nc2c(C(F)(F)F)cccc12	-	>128 µM
O=C(O)c1c2n(c3cc([N+](=O)[O-])c(N4CCC(n5c(=O)[nH]c6ccc(Cl)cc65)CC4)cc3c1=O)CS2	MTT	188 µM
CCOC(=O)c1c([N+](=O)[O-])c(-c2ccccc2)n(COCCO)c1C	-	>300 µM
COc1cccc([C@H](c2cc3cc(Br)ccc3nc2OC)[C@@](O)(CCN(C)C)c2cc(C)cc(C)n2)c1F	-	>10 µg/mL
CC(C)(C)OC(=O)N1CCCC[C@H]1[C@@H](O)c1cc(C(F)(F)F)nc2c(C(F)(F)F)cccc12	-	10 µM
c1ccc(CCN2CCN([C@@H](Cc3ccccc3)CN3CCCC3CN3CCNC[C@H]3Cc3ccccc3)C[C@@H]2Cc2ccccc2)cc1	-	0.97 µg/mL
Fc1ccc(Cn2ccc3nc(-c4c(F)ccc(F)c4F)nc-3c2)c(F)c1	-	>100 µg/mL
CC#Cc1cn([C@@H]2O[C@H](COP(=O)(NCCCCCCCCCCCC)Oc3ccccc3)[C@@H](O)[C@@H]2O)c(=O)[nH]c1=O	-	80 µM
C#CCNc1nc(N)nc2c1ncn2[C@H]1C[C@H](N=[N+]=[N-])[C@@H](CO)O1	MTS	>100 µM
NS(=O)(=O)c1ccc(CN2CCCC[C@H]2[C@@H](O)c2cc(C(F)(F)F)nc3c(C(F)(F)F)cccc23)cc1	-	38 µM
COc1ccc2nc3n[nH]c(C)c3c(SCc3ccco3)c2c1	-	>100 µg/mL
O=C(O)c1c2n(c3cc([N+](=O)[O-])c(N4CCC(O)(c5ccc(Cl)cc5)CC4)cc3c1=O)CS2	MTT	64.03 µM
O=C(Nc1ccn[nH]1)c1ccc([N+](=O)[O-])o1	-	7.29 µg/mL
Cc1ccc2[nH]c3cc(O)cc(O)c3c(=O)c2c1	-	60 µM
CC(=O)OCCOCn1c(-c2ccccc2)c(Br)c(Br)c1-c1ccccc1	-	23 µM
FC(F)(F)c1ccc(Sc2cc3ccccc3[n+](CCCCCC3CCCCC3)c2)cc1	neutral red	>10 µg/mL
C[N+](C)(C)C(Cc1ccccc1)C(=O)[O-]	-	>100 µg/mL
O=C(Nc1cccc(Br)c1)c1ccc([N+](=O)[O-])o1	-	15.37 µg/mL
FC(F)(F)c1cccc(Sc2cc3ccccc3[n+](CCCCCC3CCCCC3)c2)c1	neutral red	>10 µg/mL
O/N=C\c1cc(C(F)(F)F)nc2c(C(F)(F)F)cccc12	-	>128 µM
C[C@H]([C@@H]1CC[C@H](C)C(=O)O1)[C@H]1CC[C@@]2(C)C3=C(CC[C@]12C)[C@@]1(C)CCC(=O)C(C)(C)C1CC3	-	>100 µg/mL
Brc1ccc(Sc2cc3ccccc3[n+](CCCCCc3ccccc3)c2)cc1	neutral red	>10 µg/mL
O=C(Nc1cccc(Cl)c1)c1ccc([N+](=O)[O-])o1	-	6.86 µg/mL
CC(=O)OCCOCn1c(-c2ccccc2)c(C#N)c([N+](=O)[O-])c1-c1ccccc1	-	>300 µM
c1ccc(Cn2ccc3nc(-c4ccccc4)nc-3c2)cc1	-	>100 µg/mL
O=C(O)c1c2n(c3cc(F)c(N4CCC(n5c(=O)[nH]c6ccc(Cl)cc65)CC4)cc3c1=O)CS2	MTT	>125 µM
Clc1ccc(-c2nc3ccn(Cc4ccc(Br)cc4)cc-3n2)cc1	-	>100 µg/mL
ONc1cc(C(F)(F)F)nc2c(C(F)(F)F)cccc12	-	>128 µM
Cc1cc(N/N=C/c2ccccc2)c2cc(C3CCCCC3)ccc2n1	-	64 µg/mL
COc1ccc(N(C)C(=O)c2ccc([N+](=O)[O-])o2)cc1	-	25.25 µg/mL
CCCCOc1ccc2nc(C)cc(NN)c2c1	-	5.94 µg/mL
COc1ccc(Cc2c(C)c(C#N)c3[nH]c4ccccc4n3c2=O)cc1	-	>64 µg/mL
CCOC(=O)c1c([N+](=O)[O-])c(-c2ccccc2)n(COCCOC(C)=O)c1C	-	169 µM
CN1CCN(c2cc3c(=O)c(C(=O)O)c4n(c3cc2[N+](=O)[O-])CS4)CC1c1ccccc1	MTT	69.06 µM
CN(C)c1ccc(-c2cc(C(F)(F)F)nc3c(C(F)(F)F)cccc23)cc1	-	35 µM
CCCCc1ccc2nccc(N/N=C/c3ccc(OC)c4ccccc34)c2c1	-	5.7 µg/mL
Fc1ccc(Sc2cc3ccccc3[n+](CCCCCc3ccccc3)c2)cc1	neutral red	>10 µg/mL
O=C(O)c1cn2c(n1)CN(c1cc3c(=O)c(C(=O)O)c4n(c3cc1F)CS4)CC2	MTT	>150.1 µM
CCOc1ccc2c(NN)cc(C)nc2c1	-	25.2 µg/mL
N#Cc1ccn2c(-c3ccccc3)c(-c3ccccc3)c(C(O)c3ccccc3)c2c1	-	>10 µg/mL
CC#Cc1cn([C@@H]2O[C@H](COP(=O)(O)OCC(Cl)(Cl)Cl)[C@@H](O)[C@@H]2O)c(=O)[nH]c1=O	-	185 µM
N#Cc1cccc(Sc2cc3ccccc3[n+](CCCCCC3CCCCC3)c2)c1	neutral red	>10 µg/mL
CCOP(=O)(OCC)C1=NOC(n2cc(C)c(=O)[nH]c2=O)C1	-	>400 µM
COc1cccc([C@H](c2cc3cc(C#N)ccc3nc2OC)[C@@](O)(CCN(C)C)c2cncc(C)c2)c1F	-	>10 µg/mL
CC[C@@]1(O)C[C@H](O[C@H]2C[C@H](N(C)C)[C@H](O[C@H]3C[C@H](O)[C@H](O[C@H]4CCC(=O)[C@H](C)O4)[C@H](C)O3)[C@H](C)O2)c2c(cc3c(c2O)C(=O)c2c(O)cccc2C3=O)[C@H]1C(=O)OC	-	0.01 µM
CC#Cc1cn([C@@H]2O[C@H](COP(=O)(OCC(Cl)(Cl)Cl)Oc3ccccc3)[C@@H](O)[C@@H]2O)c(=O)[nH]c1=O	-	>125 µM
COc1ccc2nc(-c3ccccc3)cc(NN)c2c1	-	3.78 µg/mL
CC1(C)[C@@H](CO)CC[C@@]1(C)Cn1nnc2c(=O)[nH]cnc21	-	>400 µg/mL
Cc1cn(CC[C@H](O)CCO)c(=O)[nH]c1=O	-	>400 µg/mL
CCc1nc2ccccc2n1CCCCNc1ccc(-c2ccccn2)cc1	luminescence	22 µM
CC1CCC(CN2CCN([C@@H](Cc3ccccc3)CN3CCCC3CN3CCNC[C@@H]3Cc3ccccc3)C[C@@H]2Cc2ccccc2)CC1	-	0.82 µg/mL
N#Cc1c(N)c(-c2ccccc2)n(COCCO)c1-c1ccccc1	-	>300 µM
CO[C@H](CO)[C@@H](O)CCn1cnc2c(=O)[nH]c(N)nc21	-	>400 µg/mL
CNc1nc(Cl)nc2c1ncn2[C@H]1C[C@H](N=[N+]=[N-])[C@@H](CO)O1	MTS	>100 µM